From patent US10765662B2, “Mono- or di-substituted indole derivatives as dengue viral replication inhibitors” (Janssen Pharmaceuticals, Inc., priority 2015, dated 2020)

Columns and labels:
Assay type in all cases: cell-based, Dengue virus
[1] = system: DENV-2 16681 strain labeled with enhanced green fluorescent protein; assay: DENV-2 antiviral assay (eGFP fluorescence read-out in Vero cells); conditions: SI=CC50/EC50, DENV-2 antiviral assay
Description: The antiviral activity of all the compounds of the invention was tested against the DENV-2 16681 strain which was labeled with enhanced green fluorescent protein (eGPF). The culture medium consists of minimal essential medium supplemented with 2% of heat-inactivated fetal calf serum, 0.04% gentamycin (50 mg/mL) and 2 mM of L-glutamine. Vero cells, obtained from ECACC, were suspended in culture medium and 25 μL was added to 384-well plates (2500 cells/well), which already contain the antiviral compounds. Typically, these plates contain a 5-fold serial dilution of 9 dilution steps of the test compound at 200 times the final concentration in 100% DMSO (200 nL). […] Finally, each plate contains wells which are assigned as virus controls (containing cells and virus in the absence of compound), cell controls (containing cells in the absence of virus and compound) and medium controls (containing medium in the absence of cells, virus and compounds). To the wells assigned as medium control, 25 μL of culture medium was added instead of Vero cells. Once the cells were added to the plates, the plates were incubated for 30 minutes at room temperature to allow the cells to distribute evenly within the wells. Next, the plates were incubated in a fully humidified incubator (37° C., 5% CO2) until the next day. Then, DENV-2 strain 16681, labeled with eGFP, was added at a multiplicity of infection (MOI) of 0.5. Therefore, 15 μL of virus suspension was added to all the wells containing test compound and to the wells assigned as virus control. In parallel, 15 μL of culture medium was added to the medium and cell controls. Next, the plates were incubated for 3 days in a fully humidified incubator (37° C., 5% CO2). At the day of the read out, the eGFP fluorescence was measured using an automated fluorescence microscope at 488 nm (blue laser). Using an in-house LIMS system, inhibition dose response curves for each compound were calculated and the half maximal effective concentration (EC50) was determined. Therefore, the percent inhibition (I) for every test concentration is calculated using the following formula: I=100*([…])/(SVC−SCC); ST, SCC and SVC are the amount of eGFP signal in the test compound, cell control and virus control wells, respectively. The EC50 represents the concentration of a compound at which the virus replication is inhibited with 50%, as measured by a 50% reduction of the eGFP fluorescent intensity compared to the virus control. The EC50 is calculated using linear interpolation (Table 1).

[2] = system: DENV-1 strain TC974#666; assay: Tetravalent RT-qPCR assay Protocol A, serotype 1; conditions: RT-qPCR serotype 1 TC974#666
Description: (§1) The antiviral activity of the compounds of the invention was tested against DENV-1 strain TC974#666 (NCPV), DENV-2 strain 16681, DENV-3 strain H87 (NCPV) and DENV-4 strains H241 (NCPV) and EDEN (SG/06K2270DK1/2005; GenBank accession number QG398256) in a RT-qPCR assay. Therefore, Vero cells were infected with either DENV-1, or -2, or -3, or -4 in the presence or absence of test compounds. At day 3 post-infection, the cells were lysed and cell lysates were used to prepare cDNA of both a viral target (the 3′UTR of DENV; Table 2) and a cellular reference gene (β-actin, Table 2). Subsequently, a duplex real time PCR was performed on a Lightcycler480 instrument. The generated Cp value is inversely proportional to the amount of RNA expression of these targets. Inhibition of DENV replication by a test compound results in a shift of Cp's for the 3′UTR gene. On the other hand, if a test compound is toxic to the cells, a similar effect on β-actin expression will be observed. The comparative ΔΔCp method is used to calculate EC50, which is based on the relative gene expression of the target gene (3′UTR) normalized with the cellular housekeeping gene (β-actin). In addition, CC50 values are determined based on the Cp values acquired for the housekeeping gene β-actin.
(§2) The culture medium consisted of minimal essential medium supplemented with 2% of heat-inactivated fetal calf serum, 0.04% gentamycin (50 mg/mL) and 2 mM of L-glutamine. Vero cells, obtained from ECACC, were suspended in culture medium and 75 μL/well was added in 96-well plates (10000 cells/well), which already contain the antiviral compounds. […] In addition, each plate contains wells which are assigned as virus controls (containing cells and virus in the absence of compound) and cell controls (containing cells in the absence of virus and compound). Once the cells were added in the plates, the plates were incubated in a fully humidified incubator (37° C., 5% CO2) until the next day. Dengue viruses serotype-1, 2, 3 and 4 were diluted in order to obtain a Cp of ˜22-24 in the assay. Therefore, 25 μL of virus suspension, was added to all the wells containing test compound and to the wells assigned as virus control. In parallel, 25 μL of culture medium was added to the cell controls. Next, the plates were incubated for 3 days in a fully humidified incubator (37° C., 5% CO2). After 3 days, the supernatant was removed from the wells and the cells were washed twice with ice-cold PBS (˜100 μL). The cell pellets within the 96-well plates were stored at −80° C. for at least 1 day. Next, RNA was extracted using the Cells-to-CT™ lysis kit, according to the manufacturer's guideline (Life Technologies). The cell lysates can be stored at −80° C. or immediately used in the reverse transcription step.
(§3) In preparation of the reverse transcription step, mix A (table 3A) was prepared and 7.57 μL/well was dispensed in a 96-well plate. After addition of 5 μL of the cell lysates, a five minute denaturation step at 75° C. was performed (table 3B). Afterwards, 7.43 μL of mix B was added (table 3C) and the reverse transcription step was initiated (table 3D) to generate cDNA.
(§4) Finally, a RT-qPCR mix was prepared, mix C (table 4A), and 22.02 μL/well was dispensed in 96-well LightCycler qPCR plates to which 3 μL of cDNA was added and the qPCR was performed according to the conditions in table 4B on a LightCycler 480.
(§5) Using the LightCycler software and an in-house LIMS system, dose response curves for each compound were calculated and the half maximal effective concentration (EC50) and the half maximal cytotoxic concentration (CC50) were determined (Tables 5-8).

[3] = system: DENV-2 strain 16681; assay: Tetravalent RT-qPCR assay Protocol A, serotype 2; conditions: RT-qPCR serotype 2 16681
Description: as §1, §2, §3, §4, §5

[4] = system: DENV-3 strain H87; assay: Tetravalent RT-qPCR assay Protocol A, serotype 3; conditions: RT-qPCR serotype 3 H87
Description: as §1, §2, §3, §4, §5

[5] = system: DENV-4 strain H241; assay: Tetravalent RT-qPCR assay Protocol A, serotype 4 H241; conditions: RT-qPCR serotype 4 H241
Description: as §1, §2, §3, §4, §5

[6] = system: DENV-4 strain EDEN (SG/06K2270DK1/2005); assay: Tetravalent RT-qPCR assay Protocol A, serotype 4 EDEN; conditions: RT-qPCR serotype 4 EDEN
Description: as §1, §2, §3, §4, §5

Row | Structure (SMILES) | SI [1] | SI [2] | SI [3] | SI [4] | SI [5] | SI [6]
1 | COc1cc(NC(C(=O)c2c[nH]c3c(C)c(Cl)ccc23)c2ccc(Cl)cc2OCCO)cc(S(C)(=O)=O)c1 (single isomer, unassigned) [Compound 5B, 2-(4-chloro-2-(2-hydroxyethoxy)phenyl)-1-(6-chloro-7-methyl-1H-indol-3-yl)-2-((3-methoxy-5-(methylsulfonyl)phenyl)amino)ethanone] | >43900 | >967 | >52300 | >218 | 33 | >2989
2 | COc1cc(NC(C(=O)c2c[nH]c3cc(OC)c(OC(F)(F)F)cc23)c2ccc(Cl)cc2OCCO)cc(S(C)(=O)=O)c1 (single isomer, unassigned) [Compound 11B, 2-(4-chloro-2-(2-hydroxyethoxy)phenyl)-2-((3-methoxy-5-(methylsulfonyl)phenyl)amino)-1-(6-methoxy-5-(trifluoromethoxy)-1H-indol-3-yl)ethanone] | >26400 | >26300 | >46200 | >2210 | 202 | 
3 | COc1cc(NC(C(=O)c2c[nH]c3ccc(OC(F)(F)F)cc23)c2ccc(Cl)cc2OCCO)cc(S(C)(=O)=O)c1 (single isomer, unassigned) [Compound 10B, 2-(4-chloro-2-(2-hydroxyethoxy)phenyl)-2-((3-methoxy-5-(methylsulfonyl)phenyl)amino)-1-(5-(trifluoromethoxy)-1H-indol-3-yl)ethanone] | >42700 | >41300 | >62800 | >2220 | >331 | 
4 | COc1cc(NC(C(=O)c2c[nH]c3ccc(C(F)(F)F)cc23)c2ccc(Cl)cc2OCCO)cc(S(C)(=O)=O)c1 (single isomer, unassigned) [Compound 9B, 2-(4-chloro-2-(2-hydroxyethoxy)phenyl)-2-((3-methoxy-5-(methylsulfonyl)phenyl)amino)-1-(5-(trifluoromethyl)-1H-indol-3-yl)ethanone] | >39700 | >38700 | >49900 | 1970 | >409 | 
5 | COc1cc(NC(C(=O)c2c[nH]c3cc(F)c(C)cc23)c2ccc(Cl)cc2OCCO)cc(S(C)(=O)=O)c1 (single isomer, unassigned) [Compound 8A, 2-(4-chloro-2-(2-hydroxyethoxy)phenyl)-1-(6-fluoro-5-methyl-1H-indol-3-yl)-2-((3-methoxy-5-(methylsulfonyl)phenyl)amino)ethanone] | 25900 | 17200 | 89000 | 1020 | 93 | 
6 | COc1cc(NC(C(=O)c2c[nH]c3c(C)cc(OC(F)(F)F)cc23)c2ccc(Cl)cc2OCCO)cc(S(C)(=O)=O)c1 (single isomer, unassigned) [Compound 12B, 2-(4-chloro-2-(2-hydroxyethoxy)phenyl)-2-((3-methoxy-5-(methylsulfonyl)phenyl)amino)-1-(7-methyl-5-(trifluoromethoxy)-1H-indol-3-yl)ethanone] | >390600 | >26700 | >56600 | 2720 | 514 | 
7 | COc1cc(NC(C(=O)c2c[nH]c3cc(F)ccc23)c2ccc(Cl)cc2OCCO)cc(S(C)(=O)=O)c1 (racemic) [Compound 1, 2-(4-chloro-2-(2-hydroxyethoxy)phenyl)-1-(6-fluoro-1H-indol-3-yl)-2-((3-methoxy-5-(methylsulfonyl)phenyl)amino)ethanone] | 11800 |  |  |  |  | 
8 | COc1cc(NC(C(=O)c2c[nH]c3c(C)c(F)ccc23)c2ccc(Cl)cc2OCCO)cc(S(C)(=O)=O)c1 (single isomer, unassigned) [Compound 4B, 2-(4-chloro-2-(2-hydroxyethoxy)phenyl)-1-(6-fluoro-7-methyl-1H-indol-3-yl)-2-((3-methoxy-5-(methylsulfonyl)phenyl)amino)ethanone] | 509 |  |  |  |  | 
9 | COc1cc(NC(C(=O)c2c[nH]c3cc(F)c(C)cc23)c2ccc(Cl)cc2OCCO)cc(S(C)(=O)=O)c1 (racemic) [Compound 8, 2-(4-chloro-2-(2-hydroxyethoxy)phenyl)-1-(6-fluoro-5-methyl-1H-indol-3-yl)-2-((3-methoxy-5-(methylsulfonyl)phenyl)amino)ethanone] | >9820 |  |  |  |  | 
10 | COc1cc(NC(C(=O)c2c[nH]c3c(C)cc(OC(F)(F)F)cc23)c2ccc(Cl)cc2OCCO)cc(S(C)(=O)=O)c1 (racemic) [Compound 12, 2-(4-chloro-2-(2-hydroxyethoxy)phenyl)-2-((3-methoxy-5-(methylsulfonyl)phenyl)amino)-1-(7-methyl-5-(trifluoromethoxy)-1H-indol-3-yl)ethanone] | >45600 |  |  |  |  | 
11 | COc1cc(NC(C(=O)c2c[nH]c3cc(OC)c(C)cc23)c2ccc(Cl)cc2OCCO)cc(S(C)(=O)=O)c1 (single isomer, unassigned) [Compound 6B, 2-(4-chloro-2-(2-hydroxyethoxy)phenyl)-2-((3-methoxy-5-(methylsulfonyl)phenyl)amino)-1-(6-methoxy-5-methyl-1H-indol-3-yl)ethanone] | 164 |  |  |  |  | 
12 | COc1cc(NC(C(=O)c2c[nH]c3cc(F)ccc23)c2ccc(Cl)cc2OCCO)cc(S(C)(=O)=O)c1 (single isomer, unassigned) [Compound 1A, 2-(4-chloro-2-(2-hydroxyethoxy)phenyl)-1-(6-fluoro-1H-indol-3-yl)-2-((3-methoxy-5-(methylsulfonyl)phenyl)amino)ethanone] | >13500 | >2200 | 29700 | >421 | >29 | 
